Compound potency records, mixed from different reports. Data source: NIAID ChemDB in PubChem.

Common to all: whole-cell or culture tests; agent: Human cytomegalovirus; cell line: MRC-5; measure: EC50

ECn: concentration that inhibits the pathogen or its effect by n%.

structure	strain	method	result
CC(C)Nc1nc2cc(Cl)c(Cl)cc2n1[C@H]1O[C@@H](CO)[C@H](O)[C@@H]1O	AD169	plaque count	0.41 µM
CC(C)Nc1nc2cc(Cl)c(Cl)cc2n1[C@@H]1C[C@@H](O)[C@H](CO)O1	AD169	hybridisation	0.17 µM
O=C1c2ccccc2C(=O)c2c1ccc(O)c2O	AD169	plaque count	24.1 µM
OC[C@@H]1O[C@H](n2c(NC3CCC3)nc3cc(Cl)c(Cl)cc32)C[C@H]1O	AD169	hybridisation	0.37 µM
Nc1nc2c(ncn2OC(/C=C/P(=O)(O)O)CO)c(=O)[nH]1	AD169	plaque count	>300 µM
O=C(O)P(=O)(O)O	AD169	plaque count	18.52 µM
Nc1nc2c(ncn2CC/C=C\P(=O)(O)O)c(=O)[nH]1	AD169	plaque count	>300 µM
Nc1ncnc2c1ncn2CCOCP(=O)(O)O	AD169	plaque count	117 µM
Nc1ncnc2c1ncn2OCCOCP(=O)(O)O	AD169	plaque count	>300 µM
Cc1cc(O)c2c(c1)/C(=C1\c3cc(C)cc(O)c3C(=O)c3c(O)cc(O)cc31)c1cc(O)cc(O)c1C2=O	AD169	plaque count	1 µM
O=C(NCCc1c[nH]c2ccccc12)C1=Cc2ccncc2CC1	P8	plaque count	0.3 µM
Cc1cc(=O)c2c(O)c3c(O)cc(O)c4c5c(O)cc(O)c6c(O)c7c(=O)cc(C)c8c1c2c(c34)c(c65)c78	Ganciclovir-resistant	plaque count	3.8 µM
OC[C@@H]1O[C@H](n2cnc3cc(Cl)c(Cl)cc32)C[C@H]1O	AD169	hybridisation	41 µM
Cc1cc(O)c2c(c1)Cc1cc(O)cc(O)c1C2=O	Ganciclovir-resistant	plaque count	4.7 µM
Nc1ncnc2c1ncn2CC/C=C\P(=O)(O)O	AD169	plaque count	>300 µM
O=C(O)c1cc(O)c2c(c1)C(=O)c1cccc(O)c1C2=O	Ganciclovir-resistant	plaque count	2 µM
CC1=CC(S(=O)(=O)O)=C(Nc2cccc3c2C(=O)c2cccc(Nc4ccc(C)cc4S(=O)(=O)O)c2C3=O)CC1		luciferase	183 µM

A second listing of 2 rows from above:

structure,strain,method,result
OC[C@@H]1O[C@H](n2cnc3cc(Cl)c(Cl)cc32)C[C@H]1O,AD169,hybridisation,41 µM
Nc1ncnc2c1ncn2OCCOCP(=O)(O)O,AD169,plaque count,>300 µM

Rows are shuffled and stem from different studies. An empty or dashed field is not shown.